Compound potency records, mixed from different reports. Data source: NIAID ChemDB in PubChem.

Shared fields: growth or infection tests; species: Hepatitis C virus; endpoint: EC50

An empty or dashed field is not shown. Lines come from different laboratories, so protocols vary. a–b is a range or a potency band. ECn: concentration that inhibits the pathogen or its effect by n%.

compound,cells,strain,read by,changes,value
CSc1cnccc1Nc1nc(-c2cc(Cl)ccc2F)nc2ncccc12,Huh7,-,replicon,-,0.49 µM
CNC(=O)c1c(-c2ccc(F)cc2)oc2cc(N(Cc3csc(C)n3)S(C)(=O)=O)c(OC(C)C)cc12,Huh7,-,replicon,-,<10 µM
N#Cc1c(Nc2ccc(Cc3ccccc3)cc2)s[nH]c1=O,Huh7,-,replicon,-,>50 µM
Nc1ncnc2c1c(-c1ccsc1)cn2[C@@H]1O[C@H](CO)[C@@H](O)C1(F)F,HCV replicon,1a,replicon,-,6.52 µM
CCCCOC(=O)[C@H](C)NP(=O)(/C=C/[C@@H]1C[C@@H](O)[C@H](n2cnc3c(=O)[nH]c(N)nc32)O1)N[C@@H](C)C(=O)OCCCC,-,-,replicon,-,<10 µM
Cc1cc(C)n2nc(CC3=C(O)CC(CCc4ccc(C(C)(C)C#N)c(F)c4)(C4CCCC4)OC3=O)nc2n1,-,M423T,replicon,-,81 µM
O=C(Nc1cccc(-c2cc(-c3c(Cl)cccc3OCCN3CCCCC3)no2)c1)C(Cl)Cl,-,-,replicon,-,≤10 µM
Cc1cccc(Cc2nc(-c3cn(CC4CCCCC4)c4cc(N5CCN(C)CC5)c(F)cc4c3=O)no2)c1,-,1b,replicon,-,<10 µM
C=CC1C[C@]1(NC(=O)[C@@H]1C[C@@H](Oc2cc(-c3ccccc3)nc3cc(OC)ccc23)CN1C(=O)[C@@H](NC(=O)OC(C)(C)C)C(C)(C)C)C(=O)NS(=O)(=O)C1CCS(=O)(=O)C1,Huh7,BMS,-,-,0.1–1 µM
CS(=O)(=O)NC(=O)c1c(-c2ccc[nH]c2=O)c2c3occc3c(F)cc2n1Cc1cc([N+](=O)[O-])ccc1F,-,-,replicon,-,<0.5 µM
CC(C)(c1ccc(F)cc1)c1nc(-c2cn(Cc3ccc(F)cc3)c3cc(F)c(F)cc3c2=O)no1,-,1b,replicon,-,>10 µM
O=C(Nc1cccc(-c2cc(-c3c(O)cccc3C(F)(F)F)no2)c1)C(Cl)Cl,-,-,replicon,-,≤10 µM
COCCNc1ccc2c(Nc3ccncc3F)nc(-c3cc(Cl)ccc3F)nc2n1,Huh7,-,replicon,-,3.4 µM
CC(C)c1cccc(C(C)C)c1Nc1s[nH]c(=O)c1C#N,Huh7,-,replicon,-,10–50 µM
O=C(Nc1cccc(-c2cc(-c3c(F)cccc3I)no2)c1)C(Cl)Cl,-,-,replicon,-,≤10 µM
CCCCOC(=O)[C@H](C)NP(=O)(/C=C/[C@@H]1C[C@@H](O)[C@H](n2cnc3c(N)nc(N)nc32)O1)N[C@@H](C)C(=O)OCCCC,-,-,replicon,-,10–100 µM
Cc1cccc(Cn2c(C(=O)NS(=O)(=O)C3CC3)c(-c3ccc[nH]c3=O)c3c4occc4ccc32)c1F,-,-,replicon,-,<0.5 µM
N#Cc1c(Nc2ccc(Br)cn2)s[nH]c1=O,Huh7,-,replicon,-,10–50 µM
CC(C)CC[C@@]1(C)C(=O)C(C2=NS(=O)(=O)c3cc(NS(C)(=O)=O)ccc3N2)=C(O)c2ccccc21,Huh7,5a,luciferase,-,0.7469 µM
CS(=O)(=O)NC(=O)c1c(-c2ccc[nH]c2=O)c2c3occc3c(F)cc2n1Cc1cc2cccc(Br)c2o1,-,-,replicon,-,>1.5 µM
CNC(=O)c1c(-c2ccc(F)cc2)oc2cc(-c3cc(C)on3)c(OC(C)C)cc12,Huh7,-,replicon,-,<1 µM
CNc1ncnc2c1ncn2[C@@H]1O[C@H](/C=C/P(=O)(O)O)C[C@H]1O,-,-,replicon,-,>100 µM
O=C(Nc1cccc(-c2cc(-c3ccccc3OC(F)(F)F)no2)c1)C(Cl)Cl,-,-,replicon,-,≤10 µM
C=CC1C[C@]1(NC(=O)[C@@H]1C[C@@H](Oc2cc(-c3ccccc3)nc3cc(OC)ccc23)CN1C(=O)[C@@H](NC(=O)OC(C)(C)C)C(C)(C)C)C(=O)NS(=O)(=O)c1cc(Br)c(Cl)s1,Huh7,BMS,-,-,1–10 µM
CC1(C)COc2c1cc(-c1ccc[nH]c1=O)c1[nH]c(C(=O)O)c(-c3ccc[nH]c3=O)c21,-,-,replicon,-,<0.5 µM
CCC(=O)c1c(-c2ccc(F)cc2)oc2cc(N(CCO)S(C)(=O)=O)c(C3CC3)cc12,H77,-,luciferase,-,0.0085 µM
NC(=O)COc1ccc2c(c1)S(=O)(=O)N=C(c1c(O)c3cc(F)ccc3n(CCC3CC3)c1=O)N2,-,1b Con1,replicon,-,0.0037 µM
CNC(=O)c1c(-c2ccc(F)cc2)oc2cc(N(Cc3c(C)noc3C)S(C)(=O)=O)c(OC)cc12,Huh7,-,replicon,-,<10 µM
Cc1cn(-c2cc3c(cc2F)c(=O)c(-c2noc(Cc4ccccc4)n2)cn3Cc2ccc(C(F)(F)F)cc2F)cn1,-,1b,replicon,-,>10 µM
C=CC1C[C@]1(NC(=O)[C@@H]1C[C@@H](Oc2cc(-c3ccccc3)nc3cc(OC)ccc23)CN1C(=O)[C@@H](NC(=O)OC(C)(C)C)C(C)(C)C)C(=O)NS(=O)(=O)c1ccc([N+](=O)[O-])s1,Huh7,BMS,-,-,0.1–1 µM
CCNC(=O)c1c(-c2ccccc2)oc2ccc(OC)cc12,Huh7,-,replicon,-,<10 µM
Clc1cccc(-c2nc(Nc3ccncc3)c3ccc(NCCN4CCCCC4)nc3n2)c1,Huh7,-,replicon,-,1.3 µM
Cc1ccc(-c2cc(-c3c(Cl)cccc3Cl)no2)cc1NC(=O)C(Cl)Cl,-,-,replicon,-,>10 µM
O=c1c(-c2noc(Cc3ccccc3)n2)cn(Cc2ccc(C(F)(F)F)cc2)c2cc(NCCN3CCOCC3)c(F)cc12,-,1b,replicon,-,<10 µM
COC(=O)N[C@H](C(=O)N1CCCC1c1ncc(-c2ccc(-c3ccc(-c4cnc([C@@H]5CC(C)CN5C(=O)[C@@H](NC(=O)CO)C(C)C)[nH]4)cc3)cc2)[nH]1)C(C)C,ET,1b,luciferase,L31V,0.00002 µM
Nc1ccc2c(Nc3ccncc3)nc(-c3cc(F)ccc3F)nc2n1,Huh7,-,replicon,-,2.1 µM
Nc1ncnc2c1c(-c1ccoc1)cn2[C@H]1O[C@H](CO)[C@@H](O)C1(F)F,HCV replicon,1a,replicon,-,4.56 µM
CNC(=O)c1c(-c2ccc(F)cc2)oc2cc(-c3cccc(S(C)(=O)=O)c3)c(OC(C)C)cc12,Huh7,-,replicon,-,<10 µM
C=CC1C[C@]1(NC(=O)[C@@H]1C[C@@H](Oc2cc(-c3ccccc3)nc3cc(OC)ccc23)CN1C(=O)[C@@H](NC(=O)OC(C)(C)C)C(C)(C)C)C(=O)NS(=O)(=O)c1cc(Cl)c(Cl)s1,Huh7,BMS,-,-,0.1–1 µM
CS(=O)(=O)NC(=O)c1c(-c2ccc[nH]c2=O)c2c3occc3c(F)cc2n1Cc1cc(C(N)=O)ccc1F,-,-,replicon,-,<0.5 µM
CN1CCN(c2cc3c(cc2F)c(=O)c(-c2noc(Cc4c(F)cccc4F)n2)cn3Cc2ccc(Cl)cc2)CC1,-,1b,replicon,-,<2 µM
COc1ccc([N+](=O)[O-])cc1Cn1c(C(=O)O)c(-c2ccc[nH]c2=O)c2c3occc3ccc21,-,-,replicon,-,>1.5 µM
CN1CCN(c2cc3c(cc2F)c(=O)c(-c2noc(C(C)(C)c4ccccc4)n2)cn3Cc2ccc(C(F)(F)F)cc2F)CC1,-,1b,replicon,-,<2 µM
CS(=O)(=O)NC(=O)c1c(-c2ccc[nH]c2=O)c2c3c(c(F)cc2n1Cc1cc2ccccc2nc1Cl)CCO3,-,-,replicon,-,<0.5 µM
C=CC1C[C@]1(NC(=O)[C@@H]1C[C@@H](Oc2cc(-c3ccccc3)nc3cc(OC)ccc23)CN1C(=O)[C@@H](NC(=O)OC(C)(C)C)C(C)(C)C)C(=O)NS(=O)(=O)c1ccc(Br)s1,Huh7,BMS,-,-,0.1–1 µM
Nc1ncnc2c1c(-c1cccs1)cn2[C@@H]1O[C@H](CO)[C@@H](O)C1(F)F,HCV replicon,1b,replicon,-,2.93 µM
O=C(Nc1cccc(-c2cc(-c3c(Cl)cccc3N3CCOCC3)no2)c1)C(Cl)Cl,-,-,replicon,-,≤10 µM
C=CC1C[C@]1(NC(=O)[C@@H]1C[C@@H](Oc2cc(-c3ccccc3)nc3cc(OC)ccc23)CN1C(=O)[C@@H](NC(=O)OC(C)(C)C)C(C)(C)C)C(=O)NS(=O)(=O)c1ccc(C)cn1,Huh7,BMS,-,-,0.1–1 µM
Nc1ncnc2c1nnn2[C@@H]1O[C@H](/C=C/P(=O)(O)O)[C@@H](O)[C@H]1O,-,-,replicon,-,>100 µM
CNC(=O)c1cnccc1Nc1nc(-c2cc(Cl)ccc2F)nc2nc(NCCOC)ccc12,Huh7,-,replicon,-,>10 µM
CNC(=O)c1c(-c2ccc(C(F)(F)F)cc2)oc2ccc(OC)cc12,Huh7,-,replicon,-,<10 µM
Nc1ncnc2c1c(-c1ccco1)cn2[C@@H]1O[C@H](CO)[C@@H](O)C1(F)F,HCV replicon,1a,replicon,-,6.04 µM
Cc1cccc(Nc2s[nH]c(=O)c2C#N)c1,Huh7,-,replicon,-,1–10 µM
CCCCOC(=O)[C@@H](C)NP(=O)(/C=C/[C@@H]1C[C@@H](O)[C@H](n2ccc(N)nc2=O)O1)N[C@H](C)C(=O)OCCCC,-,-,replicon,-,>100 µM
COc1ccc(C)cc1Nc1s[nH]c(=O)c1C#N,Huh7,-,replicon,-,10–50 µM
CCc1cc2c(C(=O)NC)c(-c3ccc(F)cc3)oc2cc1C(C)(C)O,Huh7,-,replicon,-,<1 µM

6 of the rows above, restated:

| compound | cells | strain | read by | changes | value |
|---|---|---|---|---|---|
| O=C(Nc1cccc(-c2cc(-c3c(Cl)cccc3N3CCOCC3)no2)c1)C(Cl)Cl | - | - | replicon | - | ≤10 µM |
| Nc1ccc2c(Nc3ccncc3)nc(-c3cc(F)ccc3F)nc2n1 | Huh7 | - | replicon | - | 2.1 µM |
| Clc1cccc(-c2nc(Nc3ccncc3)c3ccc(NCCN4CCCCC4)nc3n2)c1 | Huh7 | - | replicon | - | 1.3 µM |
| Nc1ncnc2c1c(-c1ccco1)cn2[C@@H]1O[C@H](CO)[C@@H](O)C1(F)F | HCV replicon | 1a | replicon | - | 6.04 µM |
| CSc1cnccc1Nc1nc(-c2cc(Cl)ccc2F)nc2ncccc12 | Huh7 | - | replicon | - | 0.49 µM |
| N#Cc1c(Nc2ccc(Cc3ccccc3)cc2)s[nH]c1=O | Huh7 | - | replicon | - | >50 µM |